# PubChem BioAssay AID504761 | Drosophila RNAi Screening Center, 2011
# Test: 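Fly genes whose silencing reduces dengue virus type 2 infection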 (primary screen)
# Cell system: D.Mel-2 cells from Drosophila
# Reagent: long dsRNA against Drosophila genes
# Treatment: infection with dengue virus type 2; dose and infection time not stated
# Measurement: 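Per well on two replicate plates, imaging gave the percent of cells positive for viral envelope protein, ranked by infection, and a nuclear count of cells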
# Reading the numbers: infection score: higher = more virus-infected cells; cell count: higher = more cells in the well
# Active means: 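Low infection ranks in the two replicates (chance level up to 0.065) followed by a retest with a 1.5-fold or larger significant decrease, p below 0.05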
# Calls: active = confirmed: knock-down lowers infection; inactive = not picked or not confirmed
# The deposit covers about 22,000 reagents; below is a random part of those that have a named target and a result. Over the whole deposit, 116 (0.52%) are marked active. 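Calls depend on retest data that are not deposited; infection was ranked per plate without normalising between plates; the unit of the infection score is not given.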 The raw values are shown without normalisation. Unmarked entries are inactive. Reagent sequences are not shown. Not stated in the record: the amount of reagent, the time to read-out.
gene,amplicon,"infection score, replicate 1","infection score, replicate 2","cell count, replicate 1","cell count, replicate 2"
RpL10Ab (Ribosomal protein L10Ab),DRSC10798,3.85,4.07,2207,2310
RpL10Ab (Ribosomal protein L10Ab),DRSC26988,8.2,4.87,3441,3391
hec (hector),DRSC19895,0.95,2.98,5893,6375
Ddx1 (Dead-box-1),DRSC11862,5.92,6.65,5640,7114
dhd (deadhead),DRSC18761,9.54,5.88,5965,6461
dhd (deadhead),DRSC29590,0.38,,263,334
CG17612,DRSC00505,5.69,18.8,6080,4458
CG17612,DRSC28366,15.2,19.7,5171,3406
Meics (Meiotic central spindle),DRSC11413,1.2,6.24,6609,6474
Meics (Meiotic central spindle),DRSC29541,15.3,12.2,5692,2819
Art8 (Arginine methyltransferase 8),DRSC02530,1.49,5.81,6387,6660
Dim1,DRSC00563,3.86,5.04,5702,5876
Mnn1 (Menin 1),DRSC03368,2.07,25.1,6621,4049
CG32204,DRSC09574,0.85,1.53,5739,5943
CG32204,DRSC23663,7.77,7.59,6191,5537
Arc1 (Activity-regulated cytoskeleton associated protein 1),DRSC06159,2.73,5.14,5240,6951
Arc1 (Activity-regulated cytoskeleton associated protein 1),DRSC28128,9.88,7.87,5932,5627
PIG-F (Phosphatidylinositol glycan anchor biosynthesis class F),DRSC11069,6.11,11.5,6420,6470
PIG-F (Phosphatidylinositol glycan anchor biosynthesis class F),DRSC27027,7.61,3.46,6060,6102
CG13786,DRSC02289,2.53,13.1,5893,6062
CG13786,DRSC27762,17.4,7.68,6559,6533
Cwc25,DRSC26038,8.2,7.01,6290,6263
SCAR,DRSC03426,7.59,2.27,5453,5677
CG32982,DRSC02677,1.42,7.64,6597,3587
CG32982,DRSC03269,7.53,5.71,5114,7025
CG32982,DRSC21912,12.2,4.55,5941,6182
bdwf (bedwarfed),DRSC15532,5.85,7.79,6788,6879
CG31031 (retired record),DRSC13964,0.53,0.12,6390,6488
Sgs7 (Salivary gland secretion 7),DRSC11281,1.59,3.09,5736,6406

Laid out differently: results already given.
gene	amplicon	infection score, replicate 1	infection score, replicate 2	cell count, replicate 1	cell count, replicate 2
CG13786	DRSC27762	17.4	7.68	6559	6533
Cwc25	DRSC26038	8.2	7.01	6290	6263
SCAR	DRSC03426	7.59	2.27	5453	5677
CG32982	DRSC02677	1.42	7.64	6597	3587
CG32982	DRSC03269	7.53	5.71	5114	7025
CG32982	DRSC21912	12.2	4.55	5941	6182
bdwf (bedwarfed)	DRSC15532	5.85	7.79	6788	6879
CG31031 (retired record)	DRSC13964	0.53	0.12	6390	6488
Sgs7 (Salivary gland secretion 7)	DRSC11281	1.59	3.09	5736	6406

More reagents follow.
gene,amplicon,"infection score, replicate 1","infection score, replicate 2","cell count, replicate 1","cell count, replicate 2"
tsu (tsunagi),DRSC07265,2.28,5.55,6531,6124
CG31211,DRSC14953,4.24,7.07,6986,5137
CG31211,DRSC15344,4.75,3.75,6922,6722
CG31211,DRSC21478,3.75,2.5,7069,6526
Cluap1 (Clusterin associated protein 1),DRSC20637,3.3,3.19,5790,6765
Cluap1 (Clusterin associated protein 1),DRSC23735,9.78,4.15,6112,5922
GABA-B-R3 (metabotropic GABA-B receptor subtype 3),DRSC00561,12.4,5.19,6586,6651
GABA-B-R3 (metabotropic GABA-B receptor subtype 3),DRSC29404,,,274,431
CG12679,DRSC20493,6.51,7.23,6081,5741
CG12679,DRSC29589,,6.89,385,682
CG12321,DRSC14499,19.1,17,5926,6311
CG12321,DRSC28965,8.51,7.03,2410,6045
CG33233,DRSC08239,2.26,5.95,5891,5392
Prp6 (pre-mRNA processing factor 6),DRSC10724,3.47,4.51,6172,6656
Prp6 (pre-mRNA processing factor 6),DRSC21773,10.7,3.92,5409,5662
l(2)05287 (lethal (2) 05287),DRSC02151,24.2,36.9,5624,4777
l(2)05287 (lethal (2) 05287),DRSC02152,22,6.07,3832,4795
l(2)05287 (lethal (2) 05287),DRSC26660,9.27,5.86,5736,6112
Saf-B (Scaffold attachment factor B),DRSC16167,5.23,16.1,4842,4543
Saf-B (Scaffold attachment factor B),DRSC28393,0.22,13.4,462,2019
muc (midline uncoordinated),DRSC02832,2.95,5.55,5801,6416
muc (midline uncoordinated),DRSC21940,1.87,1.42,6407,6007
muc (midline uncoordinated),DRSC23834,5.44,2.22,5955,6386
CG12535,DRSC17838,3.75,1.79,853,1616
Zip102B (Zinc/iron regulated transporter-related protein 102B),DRSC17155,0.93,7.71,7192,4711
Zip102B (Zinc/iron regulated transporter-related protein 102B),DRSC26001,2.31,8.41,6847,6622
CG14453,DRSC11710,1.12,3.93,6421,6430
CG14453,DRSC23780,1.61,3.69,7280,6616
CG10970,DRSC17772,5.55,1.62,6455,6486
